Percent effect of library compounds

The values are deposited in ChEMBL (CHEMBL3988442, “University of Dundee, Small-Polar-MMV Screening Library” (2021)).

Mtb glucose medium: 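Phenotypic screen: M. tuberculosis growth, glucose 7H9 medium, 3 days; the read-out is not stated. Compounds at 500 µM. Direction is inferred from retests: higher values go with more growth inhibition. About 18,000 compounds were tested under these conditions; 7.9% (about 1,400) showed 50% or more at least once.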
Mtb cholesterol medium: 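Whole-cell growth test on Mycobacterium tuberculosis, read after 4 days in a medium based on cholesterol and the lipid DPPC; the read-out is not stated. Compounds at 500 µM. Direction is inferred from retests: higher values go with more growth inhibition. Of about 18,000 compounds tested this way, about 900 (5%) reached 50% or more in at least one test.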

The filed quantity is “Percent Effect” (%). How 0% and 100% were set is not recorded. Most values in the screen are low, and negative values occur. The entries come from a sample that favours strong results. A dash means the value is not listed here; it may have been measured.

- CSCCN1CCN(C(=O)c2cnc[nH]2)CC1 : Mtb cholesterol medium: -9.411%
- CCOc1ccc(Cl)cc1CNCCNCC(C)O (configuration not stated) : Mtb cholesterol medium: 52.82%
- NS(=O)(=O)c1ccc(NC(=O)Oc2ccccc2)cc1 : Mtb glucose medium: 11.32%
- CN(C(=O)Cc1c[nH]c(=O)[nH]c1=O)C1CCSCC1 : Mtb cholesterol medium: -13.87%
- Cc1n[nH]c(SCC(=O)N[C@@H]2CCNC[C@H]2O)n1 : Mtb cholesterol medium: 6.817%
- CCOc1ccc(-c2cc(N)[nH]n2)cc1 : Mtb glucose medium: 63.33%; Mtb cholesterol medium: 59.83%
- CN(Cc1ccon1)C(=O)C1COc2ccccc2C1 (configuration not stated) : Mtb glucose medium: 40.56%
- OCCNCc1ccc(F)cc1C(F)(F)F : Mtb glucose medium: 2.293%
- COc1ccc(CCN)c(O)c1 : Mtb glucose medium: 74.96%; Mtb cholesterol medium: 52.08%
- Cc1[nH]nc(C(N)=O)c1NC(=O)c1cc(F)cc(Br)c1 : Mtb glucose medium: 21.37%
- CCCN1CCN(C(=O)c2c(C)nn(C)c2C)CC1 : Mtb cholesterol medium: 7.586%
- N#Cc1ccccc1CSc1nnnn1C1CC1 : Mtb cholesterol medium: 34.69%
- COc1cc(C(C)=O)ccc1S(C)(=O)=O : Mtb glucose medium: -9.905%; Mtb cholesterol medium: -21.93%
- CC(C)(C)OC(=O)N1C[C@@H]2CCN[C@@H]2C1 : Mtb glucose medium: -19.62%
- NCc1ccc(OCC2CC2)nc1 : Mtb glucose medium: 41.96%; Mtb cholesterol medium: 30.4%
- CC(C)c1ccc(CNCCNCCO)cc1 : Mtb glucose medium: 44.33%; Mtb cholesterol medium: 18.25%
- OCCNCCNCc1ccc(-c2ccccc2)o1 : Mtb glucose medium: 56.39%; Mtb cholesterol medium: 57.73%
- Oc1cccc(CNc2cccnc2-n2cccn2)c1 : Mtb glucose medium: 83.78%; Mtb cholesterol medium: 82.59%
- c1cnc2ncnc(NC3CCOC3)c2c1 (configuration not stated) : Mtb glucose medium: -0.5078%
- Cc1ncsc1C(=O)NC1CCNCC1 : Mtb glucose medium: -3.357%
- CC(C)COc1ccc(C(=O)N(C)CC(N)=O)cn1 : Mtb glucose medium: 3.122%
- Cc1n[nH]c(C)c1S(=O)(=O)N(C)CC(=O)NC1CC1 : Mtb glucose medium: 15.2%
- NC(=O)Cc1ccc(NC(=O)CC(F)(F)F)cc1 : Mtb cholesterol medium: -31.88%
- Cc1cccc(N2CCC(N(C)CCCO)CC2)n1 : Mtb glucose medium: 16.87%
- COCC(=O)N(C)Cc1cc(Br)cs1 : Mtb glucose medium: 39.7%
- Cc1csc(NC(=O)NCC2(O)CCN(C)CC2)n1 : Mtb cholesterol medium: 0.9218%
- CNc1snc(C)c1C(=O)NCc1ncoc1C : Mtb cholesterol medium: -4.735%
- OCC1CCN(Cc2ccc(F)c3cccnc23)CC1 : Mtb cholesterol medium: 0.7709%
- COc1cc(F)c(C(=O)NCC2CCCCO2)c(F)c1 (configuration not stated) : Mtb glucose medium: 11.56%
- CC(C)(C)OC(=O)N[C@@H]1CCCNC1 : Mtb cholesterol medium: -21.83%
- OCCC1CCCN1 (configuration not stated) : Mtb glucose medium: 9.736%
- CC(C)NC(=O)N(C)C1CCS(=O)(=O)C1 (configuration not stated) : Mtb cholesterol medium: 1.012%
- COCC(C)Nc1cncc(Br)c1 (configuration not stated) : Mtb cholesterol medium: 4.778%
- CC(C)NC(=O)Cn1cnc2c1c(=O)n(C)c(=O)n2C : Mtb cholesterol medium: -0.8616%
- O=C(CCc1cc(Cl)no1)N1CC[C@H]2CNC[C@H]21 : Mtb glucose medium: -4.284%

Some entries from above, unchanged:

SMILES	Mtb glucose medium	Mtb cholesterol medium
CC(C)NC(=O)N(C)C1CCS(=O)(=O)C1 (configuration not stated)	-	1.012%
Cc1n[nH]c(SCC(=O)N[C@@H]2CCNC[C@H]2O)n1	-	6.817%
CC(C)(C)OC(=O)N[C@@H]1CCCNC1	-	-21.83%